1 substance from US6017542, “Nucleotide and amino acid sequences of canine herpesvirus GD and uses therefor” (dated 2000) can be followed below.

The experiment addresses rabies virus glycoprotein G (rabies virus) (UniProt P03524).

As to “sera of squirrel monkeys inoculated with parental ALVAC only (before ALVAC-RG)”, the Rabies serum-neutralizing antibody (RFFI test), day 0 (International Units) is less than 1.2.
